Laboratory results taken from publication PMC8692984 (Frontiers in Pharmacology, 2021).

Protein sequences, listed by entry. Tags and fused reporters are not part of them. Residues count along the entry.
UniProt P58154, 20-229 limits assumed: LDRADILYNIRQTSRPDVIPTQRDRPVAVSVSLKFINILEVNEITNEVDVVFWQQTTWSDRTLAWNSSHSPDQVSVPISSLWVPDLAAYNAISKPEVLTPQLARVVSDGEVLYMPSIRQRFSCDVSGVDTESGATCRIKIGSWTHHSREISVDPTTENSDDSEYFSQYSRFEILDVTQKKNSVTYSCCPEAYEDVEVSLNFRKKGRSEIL

Biological target: Ls-AChBP (Lymnaea stagnalis, UniProt P58154)
Assay: displacement of [3H]-epibatidine binding on Ls-AChBP

## CC[C@H](C)[C@@H]1NC(=O)[C@H](Cc2c[nH]cn2)NC(=O)[C@@H]2CCCN2C(=O)[C@H](CC(N)=O)NC(=O)[C@H](CC(N)=O)NC(=O)[C@H](C(C)C)NC(=O)[C@H](CC(N)=O)NC(=O)[C@@H]2CSSC[C@H](NC(=O)CN)C(=O)N[C@@H](CSSC[C@@H](C(=O)NCC(N)=O)NC1=O)C(=O)N[C@@H](CO)C(=O)N[C@@H](CCCNC(=N)N)C(=O)N1CCC[C@H]1C(=O)N[C@@H](C)C(=O)N2 [[H5R]OmIA]
  reduced affinity for Ls-AChBP compared to OmIA: 3.6 fold

## CC[C@H](C)[C@@H]1NC(=O)[C@H](Cc2c[nH]cn2)NC(=O)[C@@H]2CCCN2C(=O)[C@H](CC(N)=O)NC(=O)[C@H](CC(=O)O)NC(=O)[C@H](C(C)C)NC(=O)[C@H](CC(N)=O)NC(=O)[C@@H]2CSSC[C@H](NC(=O)CN)C(=O)N[C@@H](CSSC[C@@H](C(=O)NCC(N)=O)NC1=O)C(=O)N[C@@H](CO)C(=O)N[C@@H](Cc1c[nH]cn1)C(=O)N1CCC[C@H]1C(=O)N[C@@H](C)C(=O)N2 [[N11D]OmIA]
  reduced affinity for Ls-AChBP compared to OmIA: 10 fold
